Results of unrelated studies side by side (data: NIAID ChemDB).

All rows: target-level tests; agent: HIV-1; target: Protease

Blank or dashed fields: not listed here. ICn: concentration for n% inhibition. Lines come from different laboratories, so protocols vary.

structure | read by | strain | endpoint | conditions | result
COC(=O)N[C@H](C(=O)N[C@@H](Cc1ccccc1)[C@@H](O)CN(CC1CCCCC1)NC(=O)[C@@H](NC(=O)OC)C(C)C)C(C)C | substrate cleavage | - | IC50 | - | 0.84 µM
NC(=O)C[C@H](NC(=O)OCc1ccccc1)C(=O)N[C@@H](Cc1ccccc1)[C@H](O)C(=O)N1CCC[C@H]1C(=O)N1CC1 | - | - | IC50 | - | <5 µM
C=CCOC(=O)N[C@H](C(=O)N[C@@H](Cc1ccccc1)[C@@H](O)CN(CC1CCCCC1)NC(=O)[C@@H](NC(=O)OCC=C)C(C)C)C(C)C | substrate cleavage | - | IC50 | - | 0.051 µM
CC(C)[C@H](NC(=O)[C@H](Cc1ccccc1)NS(C)(=O)=O)C(=O)N[C@@H](Cc1ccccc1)[C@@H](O)[C@H](O)[C@H](Cc1ccccc1)NC(=O)[C@@H](NC(=O)[C@H](Cc1ccccc1)NS(C)(=O)=O)C(C)C | HPLC | D34 | IC50 | - | 0.0008 µM
NC(=O)C[C@H](NC(=O)OCc1ccccc1)C(=O)N[C@@H](Cc1ccccc1)[C@H](O)C(=O)N1CCC[C@H]1C(=O)NCC1CCCCC1 | - | - | IC50 | - | ~5 µM
COC(=O)N[C@H](C(=O)N[C@@H](Cc1ccccc1)[C@@H](O)CN(Cc1ccc(F)cc1)NC(=O)[C@@H](NC(=O)OC)C(C)C)C(C)C | substrate cleavage | - | IC50 | - | 0.042 µM
CC(C)[C@H](NC(=O)C(Cc1ccccc1)CS(=O)(=O)CCO)C(=O)N[C@@H](Cc1ccccc1)[C@@H](O)[C@H](O)[C@H](Cc1ccccc1)NC(=O)[C@@H](NC(=O)C(Cc1ccccc1)CS(=O)(=O)CCO)C(C)C | HPLC | D34 | IC50 | - | 0.0048 µM
COC(=O)N[C@H](C(=O)N[C@@H](Cc1ccccc1)[C@@H](O)CN(Cc1ccc(O)cc1)NC(=O)[C@@H](NC(=O)OC)C(C)C)C(C)C | substrate cleavage | - | IC50 | - | 0.018 µM
CC(C)(C)NC(=O)[C@@H]1CCCN1C(=O)[C@@H](O)[C@H](Cc1ccccc1)NC(=O)[C@H](CC(N)=O)NC(=O)OCc1cccc2ccccc12 | - | - | IC50 | - | <5 µM
CC(C)COC(=O)[C@H](Cc1ccccc1)NC(=O)C[C@@H](O)C(=O)N[C@@H](Cc1ccccc1)C(=O)OCC(C)C | absorbance | - | IC50 | - | 10 µM
CC(C)C[C@H](NC(=O)[C@@H](NC(=O)CCCNC(=O)[C@H](Cc1ccccc1)NC(=O)[C@H](CCC(=O)O)NC(=O)[C@H](Cc1ccccc1)NC[C@H](Cc1ccccc1)NC(=O)OC(C)(C)C)[C@@H](C)O)C(=O)N[C@@H](CC(N)=O)C(=O)N[C@@H](Cc1ccccc1)C(=O)O | fluorescence | - | IC50 | pH 5.0 | 0.019 µM
CC(C)[C@H](NC(=O)[C@H](Cc1cccc2ccccc12)CS(=O)(=O)C(C)(C)C)C(=O)N[C@@H](Cc1ccccc1)[C@H](O)[C@H](O)[C@H](Cc1ccccc1)NC(=O)[C@@H](NC(=O)[C@H](Cc1cccc2ccccc12)CS(=O)(=O)C(C)(C)C)C(C)C | HPLC | D34 | IC50 | - | 0.0005 µM
O=C(N[C@@H](Cc1ccccc1)[C@H](O)CN(CC1CCCC1)S(=O)(=O)c1ccc(F)cc1)O[C@@H]1CCOC1 | HPLC | - | Ki | - | 0.0002 µM
CS(=O)(=O)C[C@H](NC(=O)COc1cccc2ccccc12)C(=O)N[C@@H](Cc1ccccc1)[C@H](O)C(=O)N1CCC[C@H]1C(=O)Nc1ccccc1O | - | - | IC50 | - | >0.05 µM
COC(=O)N[C@H](C(=O)N[C@@H](Cc1ccccc1)[C@@H](O)CN(Cc1ccc(C#N)cc1)NC(=O)[C@@H](NC(=O)OC)C(C)C)C(C)C | substrate cleavage | - | IC50 | - | 0.062 µM
CC(=O)C[C@H](NC(=O)c1ccc2ccccc2n1)C(=O)N[C@@H](Cc1ccccc1)[C@@H](O)CN(CC(C)C)S(=O)(=O)c1ccc(NC(C)=O)cc1 | HPLC | - | Ki | - | 0.4 µM
CC(C)(C)S(=O)(=O)C[C@@H](Cc1cccc2ccccc12)C(=O)N1CCC[C@H]1C(=O)N[C@@H](Cc1ccccc1)[C@@H](O)[C@H](O)[C@H](Cc1ccccc1)NC(=O)[C@@H]1CCCN1C(=O)[C@H](Cc1cccc2ccccc12)CS(=O)(=O)C(C)(C)C | HPLC | D34 | IC50 | - | 20 µM
COC(=O)N[C@H](C(=O)N[C@@H](Cc1ccccc1)[C@@H](O)CN(Cc1ccc(C)cc1)NC(=O)[C@@H](NC(=O)OC)C(C)C)C(C)C | substrate cleavage | - | IC50 | - | 0.019 µM
CC(=O)N[C@H](C(=O)N[C@@H](CC(C)C)C(=O)N[C@@H](CC(N)=O)C(=O)N[C@@H](Cc1ccccc1)C(=O)O)[C@@H](C)O | fluorescence | - | IC50 | pH 5.0 | 76.35 µM
CC(C)(C)NC(=O)[C@H]1C[C@@H](O)CCN1C(=O)[C@@H](O)[C@H](Cc1ccccc1)NC(=O)[C@H](CC(N)=O)NC(=O)OCc1ccccc1 | - | - | IC50 | - | >5 µM
CC(C)[C@H](NC(=O)[C@H](Cc1cccc2ccccc12)CS(=O)(=O)C(C)(C)C)C(=O)N[C@@H](Cc1ccccc1)[C@H](O)[C@@H](O)[C@H](Cc1ccccc1)NC(=O)[C@@H](NC(=O)[C@H](Cc1cccc2ccccc12)CS(=O)(=O)C(C)(C)C)C(C)C | HPLC | D34 | IC50 | - | 0.0003 µM
CC(=O)Nc1ccc(S(=O)(=O)N(C)C[C@@H](O)[C@H](Cc2ccccc2)NC(=O)OC(C)(C)C)cc1Cl | HPLC | - | Ki | - | >5 µM

Again, the opening 2 rows:

structure,read by,strain,endpoint,conditions,result
COC(=O)N[C@H](C(=O)N[C@@H](Cc1ccccc1)[C@@H](O)CN(CC1CCCCC1)NC(=O)[C@@H](NC(=O)OC)C(C)C)C(C)C,substrate cleavage,-,IC50,-,0.84 µM
NC(=O)C[C@H](NC(=O)OCc1ccccc1)C(=O)N[C@@H](Cc1ccccc1)[C@H](O)C(=O)N1CCC[C@H]1C(=O)N1CC1,-,-,IC50,-,<5 µM